Anti-infective test results gathered from many reports (values: NIAID ChemDB through PubChem).

All rows: toxicity to cultured cells; cell line: Huh7; measure: CC50

Lines come from different laboratories, so protocols vary. CCn is the concentration with n% toxicity to the cells.

NC(=O)c1ncn([C@@H]2O[C@H](CO)[C@@H](O)[C@H]2O)n1 ; result: 110 µM
Cc1c(N)nc([C@H](CC(N)=O)NC[C@H](N)C(N)=O)nc1C(=O)N[C@H](C(=O)N[C@H](C)[C@@H](O)[C@H](C)C(=O)N[C@H](C(=O)NCCc1nc(-c2nc(C(=O)NCCC[S+](C)C)cs2)cs1)[C@@H](C)O)C(O[C@@H]1O[C@@H](CO)[C@@H](O)[C@H](O)[C@@H]1O[C@H]1O[C@H](CO)[C@@H](O)[C@H](OC(N)=O)[C@@H]1O)c1cnc[nH]1 ; result: >10 µM
CC(Cc1ccc(O)c(O)c1)C(C)Cc1ccc(O)c(O)c1 ; result: 70 µM
COc1ccc(-c2c(C3CCCCC3)c3sc(C(=O)O)cc3n2CC(=O)N(C)C2CCN(C(C)C)C2)cc1 ; result: >10 µM
CC(C)OC(=O)CCc1ccccc1O[P@@](=O)(N[C@@H](C)C(=O)OC(C)C)OC[C@H]1O[C@@H](n2cnc3c(N)nc(N)nc32)[C@](C)(O)[C@@H]1O ; result: >10 µM
CCCC(NC(=O)[C@@H]1C2CCCC2CN1C(=O)[C@@H](NC(=O)[C@@H](CC(C1CCCCC1)C1CCCCC1)NC(=O)c1cnccn1)C(C)(C)C)C(=O)C(=O)NC1CC1 ; result: 45.5 µM
O=C(O)c1ccc2c(c1)nc(-c1ccc(OCc3cc(Cl)ccc3-c3cccnc3)cc1)n2C1CCCCC1 ; result: >50 µM
CC(C)CNC(=O)c1c(C(=O)O)sc2c(C3CCCCC3)c(-c3ccc(Cl)cc3)n(C)c12 ; result: >770 µM
CCOC(=O)CCc1ccccc1O[P@](=O)(N[C@@H](C)C(=O)OC(C)C)OC[C@H]1O[C@@H](n2cnc3c(N)nc(N)nc32)[C@](C)(O)[C@@H]1O ; result: >10 µM
C=CC[C@@H]1/C=C(/C)C[C@H](C)C[C@H](OC)[C@H]2O[C@@](O)(C(=O)C(=O)N3CCCC[C@H]3C(=O)O[C@H](/C(C)=C/[C@@H]3CC[C@@H](O)[C@H](OC)C3)[C@H](C)[C@@H](O)CC1=O)[C@H](C)C[C@@H]2OC ; result: 100 µM
CCCC(NC(=O)[C@@H]1C2CCCC2CN1C(=O)[C@@H](NC(=O)[C@H](CC1CCCCC1)NC(=O)c1cnccn1)C(C)(C)C)C(=O)C(=O)NC1CC1 ; result: 86.5 µM
COc1c(C)c2c(c(O)c1C/C=C(\C)CCC(=O)OCCN1CCOCC1)C(=O)OC2 ; result: 2.3 µM
C[C@@]1(O)[C@H](O)[C@@H](CO)O[C@H]1C1C=Nc2c(N)ncn[n+]21 ; result: >89 µM
CN(C)C(=O)Cn1c(-c2ccc(Cl)cc2)c(C2CCCCC2)c2sc(C(=O)O)cc21 ; result: >30 µM
CCC[C@H](NC(=O)[C@@H]1C2CCCC2CN1C(=O)[C@@H](NC(=O)[C@@H](NC(=O)c1cnccn1)C1CCCCC1)C(C)(C)C)C(=O)C(=O)N[C@@H](C)CC ; result: 53.7 µM
C[C@H](NP(=O)(N[C@@H](C)C(=O)OC(C)(C)C)OC[C@H]1O[C@@H](n2cnc(C(N)=O)n2)[C@H](O)[C@@H]1O)C(=O)OC(C)(C)C ; result: >100 µM
CN(C)CCN1Cc2ccccc2-c2c(C3CCCCC3)c3sc(C(=O)O)cc3n2CC1=O ; result: >9.75 µM
NC(=O)c1nnn([C@@H]2C[C@H](CCP(=O)(O)O)C[C@H]2O)c1N ; result: >320 µM
O=C(O)c1cc2c(s1)c(C1CCCCC1)c(-c1ccccc1)n2CCN1CCCC1 ; result: >87.5 µM
CCCC(NC(=O)[C@@H]1C2CCCC2CN1C(=O)[C@@H](NC(=O)[C@@H](NC(=O)c1cnccn1)[C@@H](C)CC)C(C)(C)C)C(=O)C(=O)NC1CC1 ; result: >100 µM
NC(=O)c1cn([C@@H]2C[C@H](CCP(=O)(O)O)C[C@H]2O)nn1 ; result: >320 µM
Nc1ncnc2c1ncn2[C@@H]1O[C@H](OCCP(=O)(O)O)[C@@H](O)[C@H]1O ; result: >300 µM
NC(=O)c1ncn([C@@H]2O[C@H](CO)[C@@H](O)[C@H]2O)n1 ; result: 75 µM
CCCC(NC(=O)[C@@H]1[C@@H]2CCC[C@@H]2CN1C(=O)[C@@H](NC(=O)OC(C)C)C(C)C)C(=O)C(=O)N[C@@H](C)c1ccccc1 ; result: >100 µM
COc1c(C)c2c(c(O)c1CC(=O)O)C(=O)OC2 ; result: 7 µM
O=C(O)c1cc2c(s1)c(C1CCCCC1)c(-c1ccccc1)n2Cc1ccncc1 ; result: >105 µM
CC(C)OC(=O)CCc1ccccc1O[P@](=O)(N[C@@H](C)C(=O)OC(C)C)OC[C@H]1O[C@@H](n2cnc3c(N)nc(N)nc32)[C@](C)(O)[C@@H]1O ; result: >10 µM
CC(C)N1CC[C@@H](N2CCn3c(c(C4CCCCC4)c4sc(C(=O)O)cc43)-c3ccccc3C2)C1 ; result: >4.75 µM
CCOC(=O)CCc1ccccc1O[P@](=O)(N[C@@H](C)C(=O)OCC)OC[C@H]1O[C@@H](n2cnc3c(N)nc(N)nc32)[C@](C)(O)[C@@H]1O ; result: >10 µM

Repeating the final 2 entries:

compound	result
CC(C)N1CC[C@@H](N2CCn3c(c(C4CCCCC4)c4sc(C(=O)O)cc43)-c3ccccc3C2)C1	>4.75 µM
CCOC(=O)CCc1ccccc1O[P@](=O)(N[C@@H](C)C(=O)OCC)OC[C@H]1O[C@@H](n2cnc3c(N)nc(N)nc32)[C@](C)(O)[C@@H]1O	>10 µM